Data reported in patent CN115850461A (INST MICROBIOLOGY CAS, dated 2023).

How the values were obtained:
GX/P2V/2017 假病毒 S蛋白 = GX/P2V/2017 假病毒 S蛋白 (sarbecovirus GX/P2V/2017); assay: cell-based or functional assay
GX/P2V/2017 RBD蛋白 = GX/P2V/2017 RBD蛋白 (sarbecovirus GX/P2V/2017); assay: SPR, Biacore […]; 74 captured on protein A chip, RBD as analyte

B1: 沙贝病毒广谱人源中和抗体74 (antibody, V domains shown)
VH: QVQLVQSGAQLKKPGESLKISCKGSGYNFSRYWIAWVRHMPGKGLEVMGIIYPDDSDTRYSPSVRGQVTISADKSTSIVYLQWSSLKASDTGIYYCARFGAGMTGMPRYFDTTRWFDPWGQGTQVTVSS
VL: QSVLTQPPSVSGAPGQRVTISCLGGSSNIGAGYDVHWYQHLPGAAPKLLISGNSNRPSGVPARFSGSKSGTSASLAITGLQAEDEADYYCQSYDNDLSQVFGGGTKLTVLG
For B1, the “IC50, 假病毒中和” value (GX/P2V/2017 假病毒 S蛋白) was 0.39 µg/mL, the Kd (GX/P2V/2017 RBD蛋白) was < 0.0227 nM and the koff (GX/P2V/2017 RBD蛋白) was 9.83e-07 s⁻¹. For the same binder, the kon (GX/P2V/2017 RBD蛋白) was 440000 M⁻¹ s⁻¹.
